The nature of data set [1]: Ultrafiltration of the compounds in PBS without protein (filter adhesion). Particulars: 50 μM in PBS pH 7.40, 10 kDa filter, no protein.
The test system of data set [2] is α1-acid glycoprotein (AGP). The experiment in a line: Direct fluorescence anisotropy of FAVI without and with AGP. The format is binding, human. A general note: Fluorescence polarisation rises when a labelled molecule tumbles more slowly, as on binding a larger partner.

For the molecule `NC(=O)c1nc(F)c[nH]c1=O` [FAVI, favipiravir], in data set [1], the recovered after filtration amounted to 100%. Also, in data set [2] (absence of AGP), the “fluorescence anisotropy r of free FAVI” value was 1.8 × 10^−3 ± 4 × 10^−4. Also, the “fluorescence anisotropy r of FAVI with AGP” value in data set [2] (presence of 10 equiv. AGP) is reported as 2.5 × 10^−3 ± 5 × 10^−4.
In the case of `CC(C)C(=O)OC[C@H]1O[C@@H](n2ccc(NO)nc2=O)[C@H](O)[C@@H]1O` [MOLNU, molnupiravir], the recovered after filtration in data set [1] amounted to 78%.
